These results are taken from ChEMBL document CHEMBL1155806, “Inorganic polyhedral metallacarborane inhibitors of HIV protease: a new approach to overcoming antiviral resistance” (J Med Chem, 2008).

pKi: −log10 of the molar value.

For this test, the target named is Protease (Human immunodeficiency virus 1, UniProt Q9YQ12). As to the kind of experiment: Inhibition of wild-type HIV1 BH10 protease expressed in Escherichia coli by spectrophotometric assay. Summed up: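 Recombinant PR refolded from inclusion bodies and purified. 8-10 pmol enzyme in 1 mL 0.1 M sodium acetate pH 4.7, 0.3 M NaCl, 4 mM EDTA. Ki obtained by fitting the Williams–Morrison competitive inhibition equation.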
The term pKi denotes the negative decadic logarithm of the Ki, by convention in mol/L. The low end stands for a large Ki, the high end for a small Ki. `CC(C)(C)NC(=O)[C@@H]1CN(Cc2cccnc2)CCN1C[C@@H](O)C[C@@H](Cc1ccccc1)C(=O)N[C@H]1c2ccccc2C[C@H]1O` showed a pKi of 9.92.

As to `Cc1cccc(C)c1OCC(=O)N[C@@H](Cc1ccccc1)[C@@H](O)C[C@H](Cc1ccccc1)NC(=O)[C@H](C(C)C)N1CCCNC1=O` [LOPINAVIR], the pKi is 10.74.

`CC(C)(C)NC(=O)[C@@H]1C[C@@H]2CCCC[C@@H]2CN1C[C@@H](O)[C@H](Cc1ccccc1)NC(=O)[C@H](CC(N)=O)NC(=O)c1ccc2ccccc2n1` gave a pKi of 10.40.
